In patent US20240386992A1:

These substances were tested against wt (assay: ELISA).

Substance	EC50 [µg/mL]
REGN10933	0.33
P2C-1F11	0.35
S309	0.64
REGN10987	0.42
